Measured values from several laboratories, pooled; numbers as filed in NIAID ChemDB.

All rows: growth or infection tests

MIC50, MIC90 and the like: level of inhibition, or share of isolates inhibited. ECn is the concentration giving n% inhibition of infection, replication or growth. Inhibition is in % at the dose shown (toxicity tests: loss of growth or viability). Lines come from different laboratories, so protocols vary. Two numbers with a dash give a range or band.

O=C(c1ccccc1)C(c1ccccc1)n1cncn1 ; organism: Candida glabrata ; read by: agar ; endpoint: MIC90 ; result: 16 µg/mL
O/N=C\c1ccccc1O ; organism: Candida famata ; endpoint: MIC ; result: 1800 µM
O=C(c1ccccc1)C(c1ccccc1)n1nnc2ccccc21 ; organism: Candida glabrata ; read by: agar ; endpoint: MIC90 ; result: >256 µg/mL
CC[C@@H]([C@H](C)O)n1ncn(-c2ccc(N3CCN(c4ccc(OC[C@@H]5CO[C@@](Cn6cncn6)(c6ccc(F)cc6F)C5)cc4)CC3)cc2)c1=O ; organism: Candida glabrata ; strain or isolate: 40 isolates ; read by: broth dilution ; setting: pH 6 ; endpoint: EC90 ; result: 8 µg/mL
Clc1ccc(C(c2ccccc2)n2ccnc2)cc1 ; organism: Candida glabrata ; read by: agar ; endpoint: MIC90 ; result: 0.5 µg/mL
C/C(=N/O)C(Cl)(Cl)Cl ; organism: Candida famata ; endpoint: MIC ; result: 3220 µM
O=C(CCn1ccnc1)c1cccc(C(O)c2ccc(Cl)c(Cl)c2)c1 ; organism: Candida guilliermondii ; strain or isolate: RTCC1248 ; read by: broth dilution ; endpoint: MIC ; result: 32 µg/mL
COc1ccc(C(c2ccc(OC)cc2)n2cncn2)cc1 ; organism: Candida dubliniensis ; read by: broth dilution ; endpoint: MFC ; result: >256 µg/mL
Cc1ccc(-n2cc(C(C)(C)O)nn2)cc1C ; organism: Candida parapsilosis ; strain or isolate: URM 4608 ; read by: broth dilution ; endpoint: inhibition ; dose: 2048 µg/mL ; result: 0%
Clc1ccccc1C(c1ccccc1)(c1ccccc1)n1ccnc1 ; organism: Candida glabrata ; strain or isolate: 40 isolates ; read by: broth dilution ; setting: pH 6 ; endpoint: EC90 ; result: 4 µg/mL
CCCCCOc1ccc(-c2ccc(-c3ccc(C(=O)N[C@H]4C[C@@H](O)[C@@H](O)NC(=O)[C@@H]5[C@@H](O)[C@@H](C)CN5C(=O)[C@H]([C@H](C)O)NC(=O)[C@H]([C@H](O)[C@@H](O)c5ccc(O)cc5)NC(=O)[C@@H]5C[C@@H](O)CN5C(=O)[C@H]([C@H](C)O)NC4=O)cc3)cc2)cc1 ; organism: Candida guilliermondii ; endpoint: MIC50 ; result: 0.06–4 µg/mL
O=C(c1ccccc1)C(c1ccccc1)n1ccnc1 ; organism: Candida parapsilosis ; read by: agar ; endpoint: MIC90 ; result: >256 µg/mL
OC(CCn1ccnc1)c1cccc(C(O)c2ccc(Cl)cc2)c1 ; organism: Candida kefyr ; strain or isolate: RTCC 1019 ; read by: broth dilution ; endpoint: MIC ; result: 8 µg/mL
CCCCCOc1ccc(-c2cc(-c3ccc(C(=O)N[C@H]4C[C@@H](O)[C@@H](O)NC(=O)[C@@H]5[C@@H](O)[C@@H](C)CN5C(=O)[C@H]([C@H](O)CC(N)=O)NC(=O)[C@H]([C@H](O)[C@@H](O)c5ccc(O)c(OS(=O)(=O)O)c5)NC(=O)[C@@H]5C[C@@H](O)CN5C(=O)[C@H]([C@@H](C)O)NC4=O)cc3)no2)cc1 ; organism: Candida guilliermondii ; read by: broth dilution ; endpoint: MIC50 ; result: 0.25 µg/mL
O/N=C\c1ccccc1Cl ; organism: Candida lipolytica ; endpoint: MIC ; result: 1410 µM
Clc1ccc(COC(Cn2ccnc2)c2ccc(Cl)cc2Cl)c(Cl)c1 ; organism: Candida albicans ; strain or isolate: 10 isolates ; read by: broth dilution ; setting: pH 7 ; endpoint: EC90 ; result: 1 µg/mL
O/N=C/c1ccc(O)cc1 ; organism: Candida famata ; endpoint: MIC100 ; result: >7290 µM
Nc1[nH]c(=O)ncc1F ; organism: Candida glabrata ; strain or isolate: 40 isolates ; read by: broth dilution ; setting: pH 7 ; endpoint: EC90 ; result: 0.125 µg/mL
CC(C)(O)c1cn(-c2cccc3ccccc23)nn1 ; organism: Candida parapsilosis ; strain or isolate: URM 3624 ; read by: broth dilution ; endpoint: inhibition ; dose: 2048 µg/mL ; result: 0%
COc1ccc(/C=N/O)cc1 ; organism: Candida famata ; endpoint: MIC ; result: 6620 µM
O=C(CCn1ccnc1)c1ccc(Cl)cc1 ; organism: Candida guilliermondii ; strain or isolate: RTCC 1377 ; read by: broth dilution ; endpoint: MIC ; result: >64 µg/mL
NC(=NC1CCCC1)c1ccc(-c2ccc(-c3ccc(C(N)=NC4CCCC4)cc3)o2)cc1 ; organism: Candida albicans ; strain or isolate: Isolate 17 (strain 12-99) ; endpoint: MFC ; result: 25 µg/mL
c1ccc(C(c2ccccc2)n2cnc3ccccc32)cc1 ; organism: Candida dubliniensis ; read by: agar ; endpoint: MIC90 ; result: >256 µg/mL
O=C(CCn1ccnc1)c1cccc(C(O)c2ccc(Cl)cc2)c1 ; organism: Candida kefyr ; strain or isolate: RTCC 1019 ; read by: broth dilution ; endpoint: MIC ; result: 0.5 µg/mL
CC(C)(O)c1cn(-c2ccc([N+](=O)[O-])cc2)nn1 ; organism: Candida parapsilosis ; strain or isolate: URM 4970 ; read by: broth dilution ; endpoint: inhibition ; dose: 2048 µg/mL ; result: 0%
O=[N+]([O-])c1cccc(/C=N\O)c1 ; organism: Candida famata ; endpoint: MIC100 ; result: 3010 µM
O=C1S/C(=C\c2ccoc2)C(=O)N1CC(O)(Cn1nccn1)c1ccc(F)cc1F ; organism: Candida colliculosa ; strain or isolate: Fluconazole-resistant 100 ; endpoint: MIC80 ; result: 37 µg/mL
CCCCCOc1ccc(-c2cc(-c3ccc(C(=O)N[C@H]4C[C@@H](O)[C@@H](O)NC(=O)[C@@H]5[C@@H](O)[C@@H](C)CN5C(=O)[C@H]([C@H](O)CC(N)=O)NC(=O)[C@H]([C@H](O)[C@@H](O)c5ccc(O)c(OS(=O)(=O)O)c5)NC(=O)[C@@H]5C[C@@H](O)CN5C(=O)[C@H]([C@@H](C)O)NC4=O)cc3)no2)cc1 ; organism: Candida guilliermondii ; endpoint: MIC50 ; result: 0.015–16 µg/mL
Clc1ccc(C(c2ccccc2)n2cncn2)cc1 ; organism: Candida dubliniensis ; read by: agar ; endpoint: MIC90 ; result: 4 µg/mL
C=CCc1ccc(O)c(OC)c1 ; organism: Candida tropicalis ; strain or isolate: 3261 ; read by: turbidity ; endpoint: MIC90 ; result: 490 µg/mL
O=C(CCn1ccnc1)c1ccc(-c2ccccc2)cc1 ; organism: Candida kefyr ; strain or isolate: RTCC 1019 ; read by: broth dilution ; endpoint: MIC ; result: 2 µg/mL
Nc1ncccc1-c1cc(Cc2ccc(COc3ccccn3)cc2)no1 ; organism: Candida spp. ; strain or isolate: fluconazole-sensitive ; read by: broth dilution ; endpoint: MIC90 ; result: 0.06 µg/mL
O=C(CCn1ccnc1)c1cccc(O)c1 ; organism: Candida guilliermondii ; strain or isolate: RTCC1248 ; read by: broth dilution ; endpoint: MIC ; result: >64 µg/mL
CC(C)(O)c1cn(-c2ccc(Cl)cc2)nn1 ; organism: Candida parapsilosis ; strain or isolate: URM 4804 ; read by: broth dilution ; endpoint: MIC ; result: 128 µg/mL